Compound potency records, mixed from different reports. Data source: NIAID ChemDB in PubChem.

Common to all: toxicity to cultured cells; cells: DAUDI; measure: CC50

CCn: concentration that lowers growth or viability of the cells by n%. Blank or dashed fields: not listed here. Rows are shuffled and stem from different studies.

compound	method	result
Nc1nc(NC2CC2)c2ncn(C=C3CC3CO)c2n1		27.9 µM
Nc1ccn(C=C2CC2(F)CO)c(=O)n1		>237 µM
COC(=O)[C@H](C)NP(=O)(OC[C@H]1C/C1=C/n1cnc2c(N)nc(N)nc21)Oc1ccccc1		26.4 µM
COC(=O)C(C)NP(=O)(OC[C@@H]1C/C1=C/n1cc(C)c(=O)[nH]c1=O)Oc1ccccc1		>100 µM
Nc1nc(OCC2CC2)c2ncn(/C=C3/C[C@@H]3CO)c2n1		148 µM
COc1nc(N)nc2c1ncn2C=C1CC1CO		162 µM
CCCCCCCC/C=C\CCCCCCCCOCCOP(=O)(O)CO[C@H](CO)Cn1ccc(N)nc1=O		>1 µM
Nc1nc(N)c2ncn(/C=C3\CC3(CO)CO)c2n1		>191 µM
Nc1ncnc2c1ncn2C=C1CC1CO		>230 µM
COC(=O)C(C)NP(=O)(OC[C@@H]1C/C1=C\n1cc(C)c(=O)[nH]c1=O)Oc1ccccc1		>100 µM
Cn1cc(C(=O)NCc2ccc(Cl)cc2)c(=O)c2c1SC(CN1CCOCC1)C2	MTS	>116 µM
CCCCCOc1nc(N)nc2c1ncn2/C=C1/C[C@@H]1CO		>99 µM
Nc1nc(Cl)c2ncn(/C=C3/C[C@H]3CO)c2n1		>191 µM
COC(=O)[C@H](C)NP(=O)(OCC1C/C1=C/n1cnc2c(N)ncnc21)Oc1ccccc1		>108 µM
CCCCCCCCCCCCOCCCOP1(=O)CO[C@@H](Cn2ccc(N)nc2=O)CO1		0.6 µM
Nc1nc(Cl)c2ncn(C=C3C[C@H]3CO)c2n1		>199 µM
Cn1cc(C(=O)NCc2ccc(Cl)cc2)c(=O)c2cc(CN3CCOCC3)ccc21	MTS	>117 µM
Nc1nc2c(ncn2C/C=C2/CC2P(=O)(O)O)c(=O)[nH]1		>300 µM
Nc1ncnc2c1ncn2/C=C1/CC1(CO)CO		81 µM
Nc1nc2c(ncn2COCCO)c(=O)[nH]1		>187 µM
COC(=O)C(Cc1c[nH]c2ccccc12)NP(=O)(O)OCC1C/C1=C\n1cnc2c(N)ncnc21		>92 µM
CCCCCCCC/C=C\CCCCCCCOCCOP1(=O)CO[C@@H](Cn2ccc(N)nc2=O)CO1		>0.8 µM
Nc1cn(/C=C2/C[C@H]2CO)c(=O)[nH]c1=O		>259 µM
OC[C@H]1O[C@@H](n2c(Br)nc3cc(Cl)c(Cl)cc32)[C@H](O)[C@@H]1O		>125 µM
Nc1ccn(C[C@H]2COP(=O)(O)CO2)c(=O)n1		>166 µM

A second listing of 2 rows from above:

compound | method | result
COC(=O)[C@H](C)NP(=O)(OC[C@H]1C/C1=C/n1cnc2c(N)nc(N)nc21)Oc1ccccc1 |  | 26.4 µM
Nc1nc2c(ncn2COCCO)c(=O)[nH]1 |  | >187 µM